{"source": "PubChem BioAssay AID504761 (Drosophila RNAi Screening Center, 2011)", "purpose": "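Fly genes whose silencing reduces dengue virus type 2 infection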 (primary screen)", "cells": "D.Mel-2 cells from Drosophila", "reagent": "long dsRNA against Drosophila genes", "challenge": "infection with dengue virus type 2; dose and infection time not stated", "read-out": "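Cells stained for dengue envelope protein and imaged; percent of infected cells per well on duplicate plates, ranked by infection, with stained nuclei counted for cell number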", "scale": "infection score: higher = more virus-infected cells; cell count: higher = more cells in the well", "rule for the call": "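Very low infection ranking in both replicate wells (chance probability at most 0.065), then a retest showing infection dropped 1.5-fold or more at p below 0.05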", "meaning of the calls": "active = confirmed: knock-down lowers infection; inactive = not picked or not confirmed", "note": "In all, the deposit lists about 22,000 reagents; shown is an unselected part of those with a known target gene and a result. Of all reagents, 116 (0.52%) were called active. 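Calls depend on retest data that are not deposited; infection was ranked per plate without normalising between plates; the unit of the infection score is not given.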 Raw values vary from plate to plate and are shown uncorrected. A number with no mark means an inactive call. Reagents against one gene are numbered here. Not stated in the record: the amount of reagent, the time to read-out."}
{"Target gene": "CG31141", "reagent no.": 1, "infection score, replicate 1": 8.87, "infection score, replicate 2": 1.37, "cell count, replicate 1": 6211, "cell count, replicate 2": 5858}
{"Target gene": "CG31141", "reagent no.": 2, "infection score, replicate 1": 13.3, "infection score, replicate 2": 8.02, "cell count, replicate 1": 2638, "cell count, replicate 2": 1958}
{"Target gene": "CG31370", "reagent no.": 1, "infection score, replicate 1": 2.62, "infection score, replicate 2": 9.91, "cell count, replicate 1": 5885, "cell count, replicate 2": 6112}
{"Target gene": "MESR4", "reagent no.": 1, "infection score, replicate 1": 10.6, "infection score, replicate 2": 24.8, "cell count, replicate 1": 5807, "cell count, replicate 2": 4847}
{"Target gene": "CG4757", "reagent no.": 1, "infection score, replicate 1": 2.84, "infection score, replicate 2": 5.81, "cell count, replicate 1": 6199, "cell count, replicate 2": 6490}
{"Target gene": "Lrpprc2", "reagent no.": 1, "infection score, replicate 1": 3.07, "infection score, replicate 2": 2.16, "cell count, replicate 1": 5904, "cell count, replicate 2": 6722}
{"Target gene": "Lrpprc2", "reagent no.": 2, "infection score, replicate 1": 11.1, "infection score, replicate 2": 12.7, "cell count, replicate 1": 6806, "cell count, replicate 2": 5754}
{"Target gene": "Lsp1alpha", "reagent no.": 1, "infection score, replicate 1": 0.53, "infection score, replicate 2": 1.54, "cell count, replicate 1": 6426, "cell count, replicate 2": 7088}
{"Target gene": "Lsp1alpha", "reagent no.": 2, "infection score, replicate 1": 9.33, "infection score, replicate 2": 1.34, "cell count, replicate 1": 6042, "cell count, replicate 2": 6553}
{"Target gene": "CG6441", "reagent no.": 1, "infection score, replicate 1": 17.1, "infection score, replicate 2": 3.82, "cell count, replicate 1": 4720, "cell count, replicate 2": 6413}
{"Target gene": "ACXB", "reagent no.": 1, "infection score, replicate 1": 37.5, "infection score, replicate 2": 11.4, "cell count, replicate 1": 5144, "cell count, replicate 2": 2105}
{"Target gene": "ACXB", "reagent no.": 2, "infection score, replicate 1": 12.3, "infection score, replicate 2": 6.77, "cell count, replicate 1": 5673, "cell count, replicate 2": 6746}
{"Target gene": "Sodh1", "reagent no.": 1, "infection score, replicate 1": 7.32, "infection score, replicate 2": 5.48, "cell count, replicate 1": 5930, "cell count, replicate 2": 6336}
{"Target gene": "Sodh1", "reagent no.": 2, "infection score, replicate 1": 9.12, "infection score, replicate 2": 2.37, "cell count, replicate 1": 3355, "cell count, replicate 2": 5610}
{"Target gene": "bib", "reagent no.": 1, "infection score, replicate 1": 15.9, "infection score, replicate 2": 17.9, "cell count, replicate 1": 6339, "cell count, replicate 2": 6332}
{"Target gene": "bib", "reagent no.": 2, "infection score, replicate 1": 2.22, "infection score, replicate 2": 10.7, "cell count, replicate 1": 6636, "cell count, replicate 2": 6528}
{"Target gene": "Mtl", "reagent no.": 1, "infection score, replicate 1": 3.3, "cell count, replicate 1": 6998, "cell count, replicate 2": 304}
{"Target gene": "tty", "reagent no.": 1, "infection score, replicate 1": 1.44, "infection score, replicate 2": 1.25, "cell count, replicate 1": 6595, "cell count, replicate 2": 6621}
{"Target gene": "tty", "reagent no.": 2, "infection score, replicate 1": 6.62, "infection score, replicate 2": 10.5, "cell count, replicate 1": 6301, "cell count, replicate 2": 6443}
{"Target gene": "CG7222", "reagent no.": 1, "infection score, replicate 1": 1.4, "infection score, replicate 2": 2.17, "cell count, replicate 1": 6054, "cell count, replicate 2": 6530}
{"Target gene": "CG15468", "reagent no.": 1, "infection score, replicate 1": 9.27, "infection score, replicate 2": 6.36, "cell count, replicate 1": 5941, "cell count, replicate 2": 1479}
{"Target gene": "CG3045", "reagent no.": 1, "infection score, replicate 1": 20.9, "infection score, replicate 2": 12.7, "cell count, replicate 1": 6014, "cell count, replicate 2": 6087}
{"Target gene": "par-6", "reagent no.": 1, "infection score, replicate 1": 5.16, "infection score, replicate 2": 12, "cell count, replicate 1": 6452, "cell count, replicate 2": 6190}
{"Target gene": "par-6", "reagent no.": 2, "infection score, replicate 1": 6.03, "infection score, replicate 2": 4.92, "cell count, replicate 1": 2968, "cell count, replicate 2": 6751}
{"Target gene": "Rab14", "reagent no.": 1, "infection score, replicate 1": 11.6, "infection score, replicate 2": 8.05, "cell count, replicate 1": 6012, "cell count, replicate 2": 5792}
{"Target gene": "Rab14", "reagent no.": 2, "cell count, replicate 1": 289, "cell count, replicate 2": 393}
{"Target gene": "dao", "reagent no.": 1, "infection score, replicate 1": 0.85, "infection score, replicate 2": 3.38, "cell count, replicate 1": 6919, "cell count, replicate 2": 6717}
{"Target gene": "dao", "reagent no.": 2, "infection score, replicate 1": 6.81, "infection score, replicate 2": 6.94, "cell count, replicate 1": 5731, "cell count, replicate 2": 5546}
